In article PMC3984054 (Bioorganic & medicinal chemistry, 2013):

System: dividing ScN2a-cl3 cells

Dextran
LC50 ± SEM (cell viability by calcein): >10 (mg/L) | effect on cell viability: no effects on cell viability
